Anti-infective test results gathered from many reports (values: NIAID ChemDB through PubChem).

Common to all: whole-cell or culture tests; agent: Parainfluenza virus

Blank or dashed fields: not listed here. Two numbers with a dash give a range or band. Neighbouring rows are from separate reports. ECn is the concentration giving n% inhibition of infection, replication or growth.

SMILES	strain or isolate	endpoint	cell line	read by	value
COC(=O)[C@]1(C)CCC[C@]2(C)c3ccc4[nH]c(C(F)(F)F)nc4c3CCC12	TYPE 3	EC50	VERO	plaque count	>4 µg/mL
Nc1nccc2c1ncn2[C@@H]1C=C[C@@H](O)[C@H]1O	TYPE 3	MIC	-	-	2 µg/mL
NNC(=O)Cc1nc2n(n1)CCCCC2	TYPE 3	MIC	-	-	16 µg/mL
O=P1(O)OCC2O[C@@H](n3cnc4c(=S)nc[nH]c43)[C@H](O)C2O1	TYPE 3	MIC	-	-	3.2–10 µg/mL
CCOC(=O)c1cc(C#N)c2[nH]c3ccccc3n2c1=O	GREER (TYPE 2)	EC50	VERO	plaque count	150 µg/mL
CCn1nc(-c2ccc(Cn3ccc4ccccc43)cc2)nc1C	TYPE 3	MIC	-	-	>80 µg/mL
Nc1nccc2c1ncn2[C@@H]1C=C(CO)[C@@H](O)[C@H]1O	TYPE 3	MIC	-	-	0.2 µg/mL
COC(=O)[C@]1(C)CCC[C@]2(C)c3cc(Br)c4nc(C)[nH]c4c3CCC12	TYPE 3	EC50	VERO	plaque count	>4 µg/mL
COc1ccc(-n2c(Cc3nc4n(n3)CCCC4)n[nH]c2=S)cc1	TYPE 3	MIC	-	-	>400 µg/mL
N#Cc1cc(C#N)c2[nH]c3ccccc3n2c1=O	TYPE 3	EC50	VERO	plaque count	5.2 µg/mL
Nc1ncnc2c1ncn2[C@@H]1C=C[C@@H](O)[C@H]1O	TYPE 3	MIC	-	-	2 µg/mL
S=c1[nH]nc(Cc2nc3n(n2)CCCCC3)o1	TYPE 3	MIC	-	-	>80 µg/mL
COC(=O)[C@]1(C)CCC[C@]2(C)c3ccc4nc5c(nc4c3CCC12)CCCC5	TYPE 3	EC50	VERO	plaque count	>4 µg/mL
N#Cc1cc(NC(=O)c2ccccc2)c(=O)n2c1[nH]c1ccccc12	GREER (TYPE 2)	EC50	VERO	plaque count	0.22 µg/mL
CCn1nc(Cc2n[nH]c(=S)o2)nc1C	TYPE 3	MIC	-	-	>400 µg/mL
O=P1(O)OCC2O[C@@H](n3cnc4c(SCc5ccccc5)ncnc43)[C@H](O)C2O1	TYPE 3	MIC	-	-	320 µg/mL
Nc1nc2c(ccn2[C@@H]2C[C@H](CO)[C@@H](O)[C@H]2O)c(=O)[nH]1	-	MIC	-	-	>100 µg/mL
CCc1nc(CC(=O)NN=C(C)C)nn1CC	TYPE 3	MIC	-	-	>80 µg/mL
COC(=O)[C@]1(C)CCC[C@]2(C)c3ccc4[nH]c(C)nc4c3CCC12	TYPE 3	EC50	VERO	plaque count	>4 µg/mL